Experimental data from publication PMC4519322 (PLoS Pathogens, 2015).

System: A/WSN/1933 (H1N1)
Assay: in vitro selection of escape viruses by passaging in MDCK cells
Type: cell-based, influenza A virus

Row | Structure (SMILES) | Highest does at CPE observed (Passage number 1) | Highest does at CPE observed (Passage number 2) | Highest does at CPE observed (Passage number 3) | Highest does at CPE observed (Passage number 4) | Highest does at CPE observed (Passage number 4, listed as nuclozin) | viral titer of 3rd passage virus normalized to HAU (virus passaged with the compound, WT 2.19×10^5 PFU/mL per HAU)
1 | Cc1onc(-c2ccccc2)c1C(=O)N1CCN(c2ccc([N+](=O)[O-])cc2Cl)CC1 [Nucleozin, nucleozin, reference compound] | 0.3 µM | 1.0 µM | 3.0 µM | 10 µM | up to 10 μM | –
2 | O=C(O)c1cc(-c2ccc(-c3ccccc3)cc2)nc2ccccc12 [RK424] | 0.2 µM | 0.6 µM | 0.3 µM | no CPE occurred | – | 1.41×10^3 PFU/mL per HAU
